Measured values from patent publication US9150603B2, “2′-cyano substituted nucleoside derivatives and methods of use thereof useful for the treatment of viral diseases” (priority 2011, dated 2015).

Protein sequences, listed by entry. Tags and fused reporters are not part of them. Lines headed by an entry give the natural chain unless they say otherwise; changes in a name come on top. Residues count along the entry.
UniProt P26663, 2420-2955 limits assumed, stated change not applied: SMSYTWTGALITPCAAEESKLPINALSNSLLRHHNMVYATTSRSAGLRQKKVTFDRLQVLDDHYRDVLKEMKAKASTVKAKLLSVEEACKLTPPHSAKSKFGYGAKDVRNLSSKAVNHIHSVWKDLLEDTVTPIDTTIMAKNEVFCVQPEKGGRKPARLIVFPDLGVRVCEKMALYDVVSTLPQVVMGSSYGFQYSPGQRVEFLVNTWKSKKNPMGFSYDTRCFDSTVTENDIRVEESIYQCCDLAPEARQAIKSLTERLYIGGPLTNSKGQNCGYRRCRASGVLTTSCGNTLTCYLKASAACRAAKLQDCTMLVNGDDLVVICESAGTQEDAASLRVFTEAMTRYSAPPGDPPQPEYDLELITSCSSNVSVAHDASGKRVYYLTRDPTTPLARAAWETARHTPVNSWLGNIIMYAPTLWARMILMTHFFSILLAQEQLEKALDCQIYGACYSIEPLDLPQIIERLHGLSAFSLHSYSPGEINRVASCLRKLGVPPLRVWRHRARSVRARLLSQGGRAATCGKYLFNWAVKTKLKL

Molecular target: HCV NS5B RNA-dependent RNA polymerase (1b-BKΔ55) (Hepatitis C virus genotype 1b, UniProt P26663)
Test: Inhibition of HCV NS5B polymerase by nucleoside triphosphate analogs (radiolabeled nucleotide incorporation assay)
Format: biochemical
Conditions: read-out: NTP Ki; Ki of the NTP analog, from NS5B IC50 by Cheng-Prusoff

| Structure (SMILES) | Ki |
| --- | --- |
| CC(C)OP1(=O)OC[C@H]2O[C@@H](n3ccc(=O)[nH]c3=O)[C@](C)(C#N)[C@@H]2O1 (some centres unmarked) | 300 nM |
| CCOc1nc(N)nc2c1ncn2[C@@H]1O[C@@H]2COP(=O)(OC3CCC3)O[C@H]2[C@@]1(C)C#N (some centres unmarked) | 100 nM |
